Here are results for 1 substance from patent US20240309070.

Experiment [1] concerns the target B5-CAR-050.
For experiment [2], the target named is B5-CAR-051.

As for “VV B5 monomer protein (Wyeth Vaccinia strain B5 with C-terminal AVI tag and HIS6 tag)”, the CAR+ % Parent in experiment [1] was 95.6%; in experiment [2], 91.9%.
